Series [1] deals with CC(=O)SCCNC(=O)CCNC(=O)[C@H](O)C(C)(C)COP(=O)(O)OP(=O)(O)OC[C@H]1O[C@@H](n2cnc3c(N)ncnc32)[C@H](O)[C@@H]1OP(=O)(O)O. Nature of the series: purified protein. The note with it: 20 mM succinate, pH 7.0, 30 °C, 2 mM MgCl2, coupled to SCS; pH 7.0; 30.0 °C.
Series [2] has as its system CCC(=O)SCCNC(=O)CCNC(=O)[C@H](O)C(C)(C)COP(=O)(O)OP(=O)(O)OC[C@H]1O[C@@H](n2cnc3c(N)ncnc32)[C@H](O)[C@@H]1OP(=O)(O)O. The series is described as follows: purified protein. The following applies: succinate co-substrate, coupled to SCS; fit with substrate inhibition.

For “TbASCT (Trypanosoma brucei brucei TREU927; S419N)”, in series [1], the Km was 46 ± 7 µM and the kcat was 104 s⁻¹. In series [2], the Km is 18 ± 2 µM and the kcat amounted to 42.9 ± 2.38 s⁻¹.

The record behind these values is paper PMC7402102.
